The values below come from PMC8497620, “Structure and inhibition of Cryptococcus neoformans sterylglucosidase to develop antifungal agents” (Nature Communications, 2021).

Sequences of proteins named here, by UniProt entry; tags and fusion partners are left off. Residues count along the entry.
UniProt J9W473, 1-851: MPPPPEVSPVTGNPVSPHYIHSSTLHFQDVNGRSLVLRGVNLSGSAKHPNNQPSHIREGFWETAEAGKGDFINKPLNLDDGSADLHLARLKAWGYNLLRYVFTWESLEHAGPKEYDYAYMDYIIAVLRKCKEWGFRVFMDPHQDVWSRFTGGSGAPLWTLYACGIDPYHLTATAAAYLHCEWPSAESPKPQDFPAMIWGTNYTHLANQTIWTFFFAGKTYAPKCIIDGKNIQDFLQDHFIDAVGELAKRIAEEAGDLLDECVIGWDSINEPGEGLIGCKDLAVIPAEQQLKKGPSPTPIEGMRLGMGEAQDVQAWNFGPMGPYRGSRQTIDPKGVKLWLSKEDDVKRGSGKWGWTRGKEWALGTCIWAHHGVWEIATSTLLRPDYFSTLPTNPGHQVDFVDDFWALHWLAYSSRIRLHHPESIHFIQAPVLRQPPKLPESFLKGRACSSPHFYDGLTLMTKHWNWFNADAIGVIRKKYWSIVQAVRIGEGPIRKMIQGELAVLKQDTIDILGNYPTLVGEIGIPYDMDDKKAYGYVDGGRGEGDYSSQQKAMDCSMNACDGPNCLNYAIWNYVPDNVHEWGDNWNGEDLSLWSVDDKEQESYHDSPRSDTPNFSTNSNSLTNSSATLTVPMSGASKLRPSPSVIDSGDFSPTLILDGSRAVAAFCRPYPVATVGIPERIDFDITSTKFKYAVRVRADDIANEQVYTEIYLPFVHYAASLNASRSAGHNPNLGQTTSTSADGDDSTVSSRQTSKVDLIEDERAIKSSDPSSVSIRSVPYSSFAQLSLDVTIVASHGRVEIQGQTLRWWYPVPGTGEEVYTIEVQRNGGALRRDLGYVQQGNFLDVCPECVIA

The target in data set [1] is C. neoformans Sgl1 (Cryptococcus neoformans var. grubii, UniProt J9W473). The data set is described as follows: Sgl1 inhibition with res-glp substrate (HTS, single-compound dose-response). It is filed as biochemical. The settings on record: read-out: IC50 against Sgl1; res-glp as substrate (100 µM), primary screen.
The test system of data set [2] is human lung epithelial cancer cell line A549. Conditions: A549 cells, 24 h, MTT.

A word on the IC50: it is the concentration that gives 50% inhibition. `CCc1[nH]c2ccc(CNc3cc(C)nc(NC)n3)cc2c1C`: the IC50 in data set [1] is 1 µM. Moreover, in data set [2], the “LD50 (lethal dose 50)” value worked out at 50 µM.
The corresponding values for `CCc1[nH]c2ccc(CNc3nc(C)cc(NC)n3)cc2c1C` are 2 µM and 87 µM.
